Anti-infective test results gathered from many reports (values: NIAID ChemDB through PubChem).

All rows: enzyme or target tests; agent: Hepatitis C virus

ICn is the concentration giving n% inhibition. a–b is a range or a potency band. An empty or dashed field is not shown. Percent inhibition refers to the dose given; in toxicity tests it is the harm to the cells. Conditions beyond the fields shown may differ between rows.

compound,strain or isolate,protein,read-out,tested at,value
CCCC(NC(=O)[C@@H]1C2CCCC2CN1C(=O)[C@@H](NC(=O)[C@@H](NC(=O)c1cnccn1)C1CCCCC1)C(C)(C)C)C(=O)C(=O)N[C@@H](C)CC,-,Nonstructural protein 3 protease,Ki,-,0.084 µM
O=C(Nc1ccsc1-c1nc(C(=O)O)c(O)c(=O)[nH]1)OCc1ccccc1Cl,-,HCV polymerase,IC50,-,<25 µM
C=C[C@H]1CC1(NC(=O)[C@@H]1C[C@@H](Oc2cc(-c3ccccc3)nc3cc(OC)ccc23)CN1C(=O)[C@@H](NC(=O)OC(C)(C)C)C(C)C)C(=O)O,-,NS3 protease,Ki,-,0.055 µM
CC(=O)N[C@@H](CC(=O)O)C(=O)N[C@H](Cc1ccc(O)cc1)C(=O)N[C@@H](CC(C)C)C(=O)N[C@@H](CCC(=O)O)C(=O)N[C@@H](CC1CCCCC1)C(=O)N[C@@H](CS)C(=O)O,-,HCV NS3 protease,IC50,-,0.68 µM
O=C(Nc1cscc1-c1nc(C(=O)O)c(O)c(=O)[nH]1)NS(=O)(=O)c1cccc(C(F)(F)F)c1,-,HCV polymerase,IC50,-,<25 µM
O=C1CC(=O)OC(CCc2ccc(N3CCCC3=O)c(F)c2)(C2CCCC2)C1,-,Nonstructural protein 5B,IC50,-,1–10 µM
CC(C)(C)c1cc(NS(=O)(=O)c2ccc(Cl)cc2)c(C(=O)O)s1,-,NS3 ATPase,IC50,-,<5 µM
CCCC[C@H](NC(=O)[C@H](CCC(=O)O)NC(=O)[C@H](CC(=O)O)NC(C)=O)C(=O)N[C@@H](CCC(=O)O)C(=O)N[C@@H](CC1CCCCC1)C(=O)N[C@@H](CS)C(=O)O,-,HCV NS3 protease,IC50,-,0.224 µM
Cc1cccc(S(=O)(=O)Nc2cc(-c3ccccc3)sc2C(=O)O)c1,-,NS3 ATPase,IC50,-,5–20 µM
CCC[C@H](NC(=O)C1CC(Oc2cc(-c3ccccc3)nc3cc(OC)ccc23)CN1C(=O)[C@@H](NC(=O)OC(C)(C)C)C(C)C)C(=O)NS(C)(=O)=O,-,NS3 protease,Ki,-,0.77 µM
CC[C@H](NC(=O)[C@@H]1C[C@@H](OCc2ccccc2)CN1C(=O)[C@@H](NC(=O)[C@@H](NC(=O)c1cnccn1)C(C)C)C(C)C)C(=O)C(F)(F)C(F)(F)F,-,NS3 protease,Ki,-,1–100 µM
CCC[C@H](NC(=O)[C@@H]1C2CCCC2CN1C(=O)[C@@H](NC(=O)[C@@H](NC(=O)c1cnccn1)C1CCCCC1)C(C)(C)C)C(=O)C(=O)N[C@@H](C)c1ccc(C)cc1,-,Nonstructural protein 3 protease,Ki,-,0.136 µM
O=C(Nc1ccsc1-c1nc(C(=O)O)c(O)c(=O)[nH]1)OCCc1ccsc1,-,HCV polymerase,IC50,-,<25 µM
CCC[C@H](NC(=O)C1C[C@@H](OC(=O)N2CCc3ccccc3C2)CN1C(=O)[C@@H](NC(=O)[C@@H](NC(=O)c1cnccn1)C(C)C)C(C)C)C(=O)C(=O)N1CC1C(=O)OC,-,HCV NS3 protease,Ki,-,<1 µM
CC[C@H](NC(=O)[C@@H]1C[C@@H](OCc2ccccc2)CN1C(=O)[C@@H](NC(=O)[C@@H](NC(=O)c1cnccn1)C(C)C)C(C)C)C(=O)C(=O)NCCc1ccccc1,-,NS3 protease,Ki,-,1–100 µM
CCC[C@H](NC(=O)C1CC(Oc2cc(-c3ccccc3)nc3cc(OC)ccc23)CN1C(=O)[C@@H](NC(=O)OC(C)(C)C)C(C)C)C(=O)CS(=O)(=O)c1ccccc1,-,NS3 protease,Ki,-,2.7 µM
CC(C)COC(=O)N[C@H](C(=O)N(C)[C@@H](CC1CC1)C(=O)NC(CC1CC1)C(=O)C(=O)NCC(=O)N[C@H](C(=O)N(C)C)c1ccccc1)C1CCCCC1,-,NS3 serine protease,Ki,-,0.06 µM
O=C1CC(=O)OC(CCc2ccc(C3OCCO3)c(F)c2)(C2CCCC2)C1,-,Nonstructural protein 5B,IC50,-,1–10 µM
O=C(OC[C@H]1O[C@@H](n2cnc3c(=O)[nH]cnc32)[C@H](O)[C@@H]1O)c1ccc(S(=O)(=O)F)cc1,-,Nonstructural protein 3 NTPase/helicase,inhibition,300 µM,25%
C[C@@H]([C@H](O)c1ccccc1)N(C(=O)c1ccc(Cl)cc1Cl)c1cc(-c2ccccc2)sc1C(=O)O.C[Si](C)C(C)(C)C,-,NS3 ATPase,IC50,-,5–20 µM
CC(=O)N[C@@H](CC(=O)O)C(=O)N[C@H](CCC(=O)O)C(=O)N[C@@H](CC(C)C)C(=O)N[C@@H](CCC(=O)O)C(=O)N[C@@H](CC1CCCCC1)C(=O)N[C@@H](CS)C(=O)O,-,HCV NS3 protease,IC50,-,0.045 µM
CC(C)c1ccc(CCC2(C3CCCC3)CC(=O)CC(=O)O2)cc1,-,Nonstructural protein 5B,IC50,-,1–10 µM
C=C[C@@H]1C[C@]1(NC(=O)[C@@H]1C[C@@H](Oc2cc(-c3ccccc3)nc3cc(OC)ccc23)CN1C(=O)[C@@H](Nc1ccccc1[N+](=O)[O-])C(C)(C)C)C(=O)NS(=O)(=O)C1CC1,BMS,NS3/NS4A protease,IC50,-,<5 µM
O=C(Nc1csc(-c2nc(C(=O)O)c(O)c(=O)[nH]2)c1)c1cccs1,-,HCV polymerase,IC50,-,<25 µM
CC(=O)N[C@@H](CC(=O)O)C(=O)N[C@H](CC(C(=O)O)C(=O)O)C(=O)N[C@H](C(=O)N[C@@H](CCC(=O)O)C(=O)N[C@@H](CC(C)C)C(=O)N[C@@H](CS)C(=O)C(=O)O)C(c1ccccc1)c1ccccc1,-,NS3/NS4A serine protease,Ki,-,0.0001 µM
CC[C@H](C)[C@H](NC(=O)OC(C)(C)C)C(=O)N1C[C@H](Oc2cc(-c3ccccc3)nc3cc(OC)ccc23)C[C@H]1C(=O)NC1(C(=O)NS(=O)(=O)C2CC2)CC12CCC2,BMS,NS3/NS4A protease,IC50,-,<5 µM
CCCC(NC(=O)[C@@H]1C2CCCC2CN1C(=O)[C@@H](NC(=O)[C@@H](NC(=O)c1cnccn1)[C@@H](C)CC)C(C)(C)C)C(=O)C(=O)NC1CC1,-,Nonstructural protein 3 protease,Ki,-,0.089 µM
COc1ccccc1CCOC(=O)Nc1ccsc1-c1nc(C(=O)O)c(O)c(=O)[nH]1,-,HCV polymerase,IC50,-,<25 µM
CC(C)(C)[C@H](NC(=O)[C@@H](NC(=O)c1cnccn1)C1CCCCC1)C(=O)N1CC2CCCC2[C@H]1C(=O)NC(CC(F)F)C(=O)C(=O)NC1CC1,-,Nonstructural protein 3 protease,Ki,-,0.025 µM
CC(C)N(C(=O)c1ccc(Cl)cc1Cl)c1c(C(=O)O)sc(-c2ccccc2)c1F,-,NS3 ATPase,IC50,-,5–20 µM
CCC[C@H](NC(=O)[C@@H]1C2CCCC2CN1C(=O)[C@@H](NC(=O)[C@@H](NC(=O)c1cnccn1)C1CCCCC1)C(C)(C)C)C(=O)C(=O)N[C@@H](C)CC,-,Nonstructural protein 3 protease,Ki,-,0.136 µM
CC(=O)N[C@@H](CC(=O)O)C(=O)N[C@H](Cc1ccccc1)C(=O)N[C@@H](CC(C)C)C(=O)N[C@@H](CCC(=O)O)C(=O)N[C@@H](CC1CCCCC1)C(=O)N[C@@H](CS)C(=O)O,-,HCV NS3 protease,IC50,-,0.82 µM
CC[C@@H](C=O)NC(=O)[C@@H]1C[C@@H](OCc2ccccc2)CN1C(=O)[C@@H](NC(=O)[C@@H](NC(=O)CCCC(=O)O)C(C)C)C(C)C,-,NS3 protease,Ki,-,1–100 µM
N#Cc1ccccc1S(=O)(=O)Nc1cc(-c2ccccc2)sc1C(=O)O,-,NS3 ATPase,IC50,-,<5 µM
CCOc1ccc(CCC2(C3CCCC3)CC(=O)CC(=O)O2)cc1Cl,-,Nonstructural protein 5B,IC50,-,<1 µM
CC[C@H](NC(=O)[C@@H]1C[C@@H](OCc2ccccc2)CN1C(=O)[C@@H](NC(=O)[C@@H](NC(=O)c1cnccn1)C(C)C)C(C)C)B1OC2CC3CC(C3(C)C)C2(C)O1,-,NS3 protease,Ki,-,1–100 µM
N[C@@H](CC(=O)O)C(=O)N[C@@H](CCC(=O)O)C(=O)N[C@H](C(=O)N[C@@H](CC(=O)O)C(=O)N[C@@H](CC1CCCCC1)C(=O)C(N)(CCC(F)F)C(=O)C(=O)O)C(c1ccccc1)c1ccccc1,-,NS3 serine protease,IC50,-,0.001 µM
CC(C)(C)OC(=O)NCc1cccc(COC(=O)Nc2ccsc2-c2nc(C(=O)O)c(O)c(=O)[nH]2)c1,-,HCV polymerase,IC50,-,<25 µM
COc1ccc2c(OC3CC(C(=O)NC4(C(=O)NS(=O)(=O)c5ccccc5)CC4)N(C(=O)[C@@H](NC(=O)OC(C)(C)C)C(C)C)C3)cc(-c3ccccc3)nc2c1,-,NS3 protease,Ki,-,0.03 µM
Cc1ccccc1S(=O)(=O)Nc1cc(-c2ccc(C#N)cc2)sc1C(=O)O,-,NS3 ATPase,IC50,-,<5 µM
C=CCC(N)(B(O)O)C(=O)[C@H](CC(C)C)NC(=O)C(NC(=O)[C@H](Cc1cccc(C)c1)NC(=O)[C@H](CCC(=O)O)NC(=O)[C@H](CC(=O)O)NC(=O)CCC(=O)O)C(C)(C)C,-,NS3 serine protease,IC50,-,0.034 µM
CC(=O)N[C@@H](CC(=O)O)C(=O)N[C@H](Cc1ccc(O)cc1)C(=O)N[C@H](C(=O)N[C@@H](CCC(=O)O)C(=O)N[C@@H](CC1CCCCC1)C(=O)N[C@@H](CS)C(=O)C(=O)O)C(c1ccccc1)c1ccccc1,-,NS3/NS4A serine protease,Ki,-,65 µM
O=C(O)c1sc(-c2ccccc2)cc1NS(=O)(=O)c1ccc(Br)cc1,-,NS3 ATPase,IC50,-,<5 µM
CCC[C@H](NC(=O)C1CC(Oc2cc(-c3ccccc3)nc3cc(OC)ccc23)CN1C(=O)[C@@H](NC(=O)OC(C)(C)C)C(C)C)C(=O)NS(=O)(=O)C(C)C,-,NS3 protease,Ki,-,0.58 µM
Cc1nc(N)c2ncn([C@@H]3O[C@H](COC(=O)c4ccc(S(=O)(=O)F)cc4)[C@@H](O)[C@H]3O)c2n1,-,Nonstructural protein 3 NTPase/helicase,inhibition,300 µM,46%
COc1ccc(CNC(C(=O)Nc2ccsc2-c2nc(C(=O)O)c(O)c(=O)[nH]2)c2ccccc2)cc1,-,HCV polymerase,IC50,-,<25 µM
C#CCOC(=O)N[C@H](C(=O)N1C[C@H](Oc2cc(-c3ccccc3)nc3cc(OC)ccc23)C[C@H]1C(=O)N[C@]1(C(=O)NS(=O)(=O)C2CC2)C[C@H]1C=C)C(C)(C)C,BMS,NS3/NS4A protease,IC50,-,<0.05 µM
Cc1cccc(-c2cc(N(C(=O)c3ccc(C)cc3O)C(C)C)c(C(=O)O)s2)c1,-,NS3 ATPase,IC50,-,<5 µM
CC(=O)N[C@@H](CC(=O)O)C(=O)N[C@@H](CCC(=O)O)C(=O)N[C@@H](Cc1ccccc1)C(=O)N[C@@H](CCC(=O)O)C(=O)N[C@@H](CC1CCCCC1)C(=O)N[C@@H](CS)C(=O)O,-,HCV NS3 protease,IC50,-,0.42 µM
O=C1OC(CCc2ccc(O)cc2)(C2CCCC2)CC(O)=C1SCc1ccccc1,-,Nonstructural protein 5B,IC50,-,1–10 µM
CC(=O)N[C@@H](CC(=O)O)C(=O)N[C@H](CC(C(=O)O)C(=O)O)C(=O)N[C@H](C(=O)N[C@@H](CCC(=O)O)C(=O)N[C@H](C(=O)N[C@@H](CS)C(=O)C(=O)O)C(c1ccccc1)c1ccccc1)C(c1ccccc1)c1ccccc1,-,NS3/NS4A serine protease,Ki,-,0.00004 µM
CC[C@H](C)[C@H](NC(=O)[C@H](CC(C)C)NC(=O)[C@@H](CC(C(=O)O)C(=O)O)NC(=O)[C@H](CC(=O)O)NC(C)=O)C(=O)N[C@@H](CC1CCCCC1)C(=O)N[C@@H](CS)C(=O)O,-,NS3 serine protease,IC50,-,0.0015 µM